Pooled drug test results. Numbers come from NIAID ChemDB, via PubChem.

Common to all: whole-cell or culture tests; species: Mycobacterium kansasii

Rows are shuffled and stem from different studies.

{"compound": "O=C(N[C@H]([C@H](O)CNCc1cccc(I)c1)C(F)(F)c1ccccc1)OCc1ccccc1", "read-out": "MIC", "strain": "P", "read by": "broth dilution", "result": "16 µg/mL"}
{"compound": "CCCc1cnc(C(=O)/C=C/c2ccccc2Br)cn1", "read-out": "MIC", "strain": "Hauduroy", "read by": "absorbance", "result": "6.25 µg/mL"}
{"compound": "CCCCCNC(=O)Nc1ccc(S(=O)(=O)Nc2cc(C)on2)cc1", "read-out": "MIC100", "setting": "14 d", "strain": "235/80", "read by": "broth dilution / absorbance", "result": "250 µM"}
{"compound": "CC[C@H]1OC(=O)[C@H](C)[C@@H](O[C@H]2C[C@@](C)(OC)[C@@H](O)[C@H](C)O2)[C@H](C)[C@@H](O[C@@H]2O[C@H](C)C[C@H](N(C)C)[C@H]2O)[C@](C)(OC)C[C@@H](C)C(=O)[C@H](C)[C@@H](O)[C@]1(C)O", "read-out": "MIC50", "strain": "104 clinical isolates", "result": "≤0.06 µg/mL"}
{"compound": "CCCCNC(=O)Nc1ccc(S(=O)(=O)Nc2cc(C)on2)cc1", "read-out": "MIC100", "setting": "7 d", "strain": "235/80", "read by": "broth dilution / absorbance", "result": "125 µM"}
{"compound": "CC(C)c1cnc(C(=O)/C=C/c2ccc(Cl)cc2)cn1", "read-out": "MIC", "strain": "Hauduroy", "read by": "absorbance", "result": "6.25 µg/mL"}
{"compound": "O=C(Nc1ccccc1)c1ccccc1OP(=O)(Oc1ccccc1)Oc1ccccc1", "read-out": "MIC", "setting": "7 d", "strain": "My 235/80", "result": "250 µM"}
{"compound": "CC[C@@H](CO)NCCN[C@@H](CC)CO", "read-out": "MIC", "strain": "P", "read by": "broth dilution", "result": "0.25 µg/mL"}
{"compound": "CCCc1cnc(C(=O)/C=C/c2ccc(Br)cc2)cn1", "read-out": "MIC", "strain": "Hauduroy", "read by": "absorbance", "result": "12.5 µg/mL"}
{"compound": "Cc1cc(NS(=O)(=O)c2ccc(NC(=O)N(C(C)C)C(C)C)cc2)no1", "read-out": "MIC100", "setting": "14 d", "strain": "235/80", "read by": "broth dilution / absorbance", "result": "250 µM"}
{"compound": "O=C1c2cc(Cl)ccc2OP(=O)(c2ccccc2)N1c1ccc(Cl)c(Cl)c1", "read-out": "MIC", "setting": "14 d", "strain": "My 235/80", "result": "8 µM"}
{"compound": "CNC(=O)Nc1ccc(S(=O)(=O)Nc2cc(C)on2)cc1", "read-out": "MIC100", "setting": "21 d", "strain": "6509/96 clinical isolate", "read by": "broth dilution / absorbance", "result": "32 µM"}
{"compound": "O=C(Nc1ccccc1)c1ccccc1OP(=O)(Oc1ccccc1)c1ccccc1", "read-out": "MIC", "setting": "7 d", "strain": "My 6509/96", "result": "250 µM"}
{"compound": "O=C(/C=C/c1ccc(Cl)cc1)c1cnccn1", "read-out": "MIC", "strain": "Hauduroy", "read by": "absorbance", "result": "6.25 µg/mL"}
{"compound": "O=C(Nc1ccc(C(F)(F)F)cc1)c1cc(Br)ccc1OP(=O)(OCc1ccccc1)OCc1ccccc1", "read-out": "MIC", "setting": "7 d", "strain": "My 6509/96", "result": "8 µM"}
{"compound": "CC(C)Cc1cnc(C(=O)/C=C/c2ccc(Br)cc2)cn1", "read-out": "MIC", "strain": "Hauduroy", "read by": "absorbance", "result": "25 µg/mL"}
{"compound": "CC(C)=CCC/C(C)=C/CNCCNC1C2CC3CC(C2)CC1C3", "read-out": "MIC", "strain": "T", "read by": "broth dilution", "result": "16 µg/mL"}
{"compound": "CCCc1cnc(C(=O)/C=C/c2ccc(Cl)cc2)cn1", "read-out": "MIC", "strain": "Hauduroy", "read by": "absorbance", "result": "12.5 µg/mL"}
{"compound": "O=C(N[C@@H]([C@@H](O)CNCc1cccc(I)c1)C(F)(F)c1ccccc1)OCc1ccccc1", "read-out": "MIC", "strain": "T", "read by": "broth dilution", "result": "128 µg/mL"}
{"compound": "CCCCCc1cnc(C(=O)/C=C/c2ccc(Br)cc2)cn1", "read-out": "MIC", "strain": "Hauduroy", "read by": "absorbance", "result": ">50 µg/mL"}
{"compound": "O=C(N[C@H]([C@@H](O)CNCc1cccc(I)c1)C(F)(F)c1ccccc1)OCc1ccccc1", "read-out": "MIC", "strain": "T", "read by": "broth dilution", "result": ">256 µg/mL"}

The first 3 rows once more:

compound	read-out	setting	strain	read by	result
O=C(N[C@H]([C@H](O)CNCc1cccc(I)c1)C(F)(F)c1ccccc1)OCc1ccccc1	MIC	-	P	broth dilution	16 µg/mL
CCCc1cnc(C(=O)/C=C/c2ccccc2Br)cn1	MIC	-	Hauduroy	absorbance	6.25 µg/mL
CCCCCNC(=O)Nc1ccc(S(=O)(=O)Nc2cc(C)on2)cc1	MIC100	14 d	235/80	broth dilution / absorbance	250 µM

An empty or dashed field is not shown. MIC50, MIC90 and the like: level of inhibition, or share of isolates inhibited.